Results: PubChem BioAssay AID585 (National Center for Advancing Translational Sciences (NCATS), 2007)
Only a part is listed here, and it is no random draw. Calls of active or inactive are those of the source. Calls follow the shape of the full dose curve.

The chains behind the UniProt entries cited, without tags or fusion partners.
UniProt P00811, whole entry: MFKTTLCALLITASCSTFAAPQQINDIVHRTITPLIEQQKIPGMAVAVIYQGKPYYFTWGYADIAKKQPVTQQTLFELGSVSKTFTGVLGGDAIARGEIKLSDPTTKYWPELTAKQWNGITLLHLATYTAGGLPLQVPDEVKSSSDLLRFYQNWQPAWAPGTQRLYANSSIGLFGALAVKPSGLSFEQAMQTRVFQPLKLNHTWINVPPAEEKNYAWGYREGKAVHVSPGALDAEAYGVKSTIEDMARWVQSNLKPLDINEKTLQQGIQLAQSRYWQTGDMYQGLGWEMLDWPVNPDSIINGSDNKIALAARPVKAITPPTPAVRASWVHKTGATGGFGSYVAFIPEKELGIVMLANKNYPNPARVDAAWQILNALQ

target: Beta-lactamase (Escherichia coli (strain K12)) (UniProt P00811); test: Promiscuous and Specific Inhibitors of AmpC Beta-Lactamase (assay without detergent); conditions: AmpC nitrocefin hydrolysis, absorbance 480 nm, no detergent; at 28.7 µM unless noted; also: % of control where 0% means no effect
Method: NIH Molecular Libraries Screening Centers Network [MLSCN]
NIH Chemical Genomics Center [NCGC]
PI Name: Shoichet, Brian K.
This aggregation profiling approach exploits the sensitivity of aggregate formation to detergent. Inhibition of b-lactamase is measured in the presence and absence of 0.01% Triton X-100. See Pubchem assay "Promiscuous and Specific Inhibitors of AmpC Beta-Lactamase (assay with detergent)" for related screen. Compounds that inhibit only in the absence of detergent are considered likely promiscuous aggregators.
A screen of 1,030 compounds was performed in Brian Shoichet's lab in 96-well format. AmpC activity was measured by following the absorbance at 480 nm. Nitrocefin is a chromogenic substrate: while nitrocefin is yellow (lmax 390 nm), the product of its hydrolysis is red (lmax 486 nm, 17,000 M-1). AmpC beta lactamase was provided by Brian Shoichet and Brian Feng, UCSF.
NCGC Assay Protocol Summary:
20 mM phosphate buffer, pH 7.0
Triton X-100: No Detergent screen: 0.0001%, Detergent screen: 0.01%.
Buffer in columns 3 and 4 as negative control (no enzyme).
5.3 nM AmpC in columns 1, 2, 5-48. Titration of UCSF compound 9 control (from 10 mM, then 1:2) pin-transferred to column 2. Column 1 is neutral (100% activity).
Six uL of reagents were dispensed to 1536-well Greiner black clear bottom plates. Compounds and controls (23 nL) were transferred via Kalypsys PinTool. The plates were incubated for 15 min at room temperature, and then 2 uL of 800 uM solution of nitrocefin was added to start the reaction. The plates were immediately transferred to and read every 20 seconds for 4 min on ViewLux (Perkin-Elmer) High-throughput CCD imager using 480 nm absorbance protocol. During dispense, reagent bottles were kept submerged into 4 deg C water bath.
Keywords: NIH Roadmap, MLSCN, MLI, MLSMR, qHTS, NCGC, AmpC Beta-Lactamase, Aggregation.

| SMILES | activity change, negative = inhibition |
| --- | --- |
| Fc1ccccc1NC1CCN(Cc2ccccc2)CC1 | inactive: -11.9% |
| CCC(CO)(C(=O)OC1CN2CCC1CC2)c1ccccc1 (stereo not given) | inactive: -12.4% |
| CCOc1ncccc1C(=O)NCC1(N2CCOCC2)CCCCC1 | inactive: 30.5% |
| O=C(O)C1(Nc2ccccc2)CCN(Cc2ccccc2)CC1 | inactive: -5.3% [at 5.75 µM] |
| N/C(=N\O)c1c(N)no[n+]1[O-] | inactive: 7.8% |
| ClCCOP(OCCCl)OCCCl | inactive: -3.8% |
| N#CC1(Nc2ccccc2)CCN(CCc2ccccc2)CC1 | inactive: 19.8% |
| NC1CCCCC1.NP(=O)(O)N(CCCl)CCCl | inactive: -1.7% [at 5.75 µM] |
| CCOP(=O)(Cl)Cl | inactive: -7.8% |
| O=C(OC1CN2CCC1CC2)C1c2ccccc2Oc2ccccc21 (stereo not given) | inactive: 29.7% |
